In patent publication US20240255507A1 (SYSMEX, published 2024) one finds signal intensity data, which are given here for two molecules.

This experiment addresses SARS-CoV-2 wild-type RBD (SARS-CoV-2, UniProt P0DTC2 319-541). As to the kind of experiment: ELISA, antigen coated, binder 1 µg/mL, chemiluminescence.

B1: CR3022 (antibody, V domains shown)
VH: QMQLVQSGTEVKKPGESLKISCKGSGYGFITYWIGWVRQMPGKGLEWMGIIYPGDSETRYSPSFQGQVTISADKSINTAYLQWSSLKASDTAIYYCAGGSGISTPMDVWGQGTTVTVSS
VL: DIQMTQSPSSLSASVGDRVTITCRASQSIYSALNWYQQKPGKAPKLLIYAASALQSGVPSRFSGSGSGTDFTLTISSLQPEDFATYYCQQTDIHPYTFGQGTKVEIKR
Molecule B1 came in with a signal intensity of 1.24e+06.

B2: CV30 (antibody, V domains shown)
VH: EVQLVESGGGLIQPGGSLRLSCAASGVIVSSNYMSWVRQAPGKGLEWVSVIYSGGSTYYADSVKGRFTISRDNSKNTLYLQMNSLRAEDTAVYYCARDLDVSGGMDVWGQGTTVTVSS
VL: not shown
The molecule B2 displayed a signal intensity of 1.17e+06.
